Measurements reported in PubChem BioAssay AID504761 (Drosophila RNAi Screening Center, 2011)
The deposit covers about 22,000 reagents; below is a random part of those with a known target gene and a result. In the full data, 116 (0.52%) are marked active. 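Calls depend on retest data that are not deposited; infection was ranked per plate without normalising between plates; the unit of the infection score is not given.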 Raw values are not corrected between plates. Names joined by + are all predicted targets of the reagent. Not given: the amount of reagent, the time to read-out.

Purpose: 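Genome-wide fly cell screen for genes dengue virus requires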 (primary screen)
Cell system: D.Mel-2 cells from Drosophila
Reagent: long dsRNA against Drosophila genes
Challenge: infection with dengue virus type 2; dose and infection time not stated
Measured: 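Cells stained for dengue envelope protein and imaged; percent of infected cells per well on duplicate plates, ranked by infection, with stained nuclei counted for cell number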
Direction: infection score: higher = more virus-infected cells; cell count: higher = more cells in the well
Hit rule: 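Very low infection ranking in both replicate wells (chance probability at most 0.065), then a retest showing infection dropped 1.5-fold or more at p below 0.05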
Meaning of the calls: active = confirmed: knock-down lowers infection; inactive = not picked or not confirmed

gene,DRSC id,"infection score, replicate 1","infection score, replicate 2","cell count, replicate 1","cell count, replicate 2",call
Kots (GeneID 41702),DRSC16581,6.79,11.1,6704,6920,inactive
AP-2alpha (GeneID 33211),DRSC00800,2.22,1.65,6582,6183,inactive
AP-2alpha (GeneID 33211),DRSC27715,0.69,1.64,5963,6101,active
CG3987 (GeneID 41822),DRSC15531,15.1,20.6,5694,5351,inactive
stil (GeneID 36380),DRSC07699,25.9,9.3,4734,6301,inactive
rod (GeneID 43719),DRSC17047,12.4,5.7,4642,6469,inactive
ETHR (GeneID 42523),DRSC15915,16.7,8.91,6205,5846,inactive
ETHR (GeneID 42523),DRSC29606,,13.7,325,2142,inactive
CG34282 (GeneID 42248),DRSC16298,17.7,1.5,5568,5793,inactive
CheB53a (GeneID 3346205),DRSC06625,15.9,13.2,6371,6194,inactive
His2Av (GeneID 43229),DRSC16702,3.36,7.94,5986,6029,inactive
CSN4 (GeneID 35759),DRSC07350,21.4,1.22,1751,490,inactive
CG31706 (GeneID 261621),DRSC22704,7.87,0.67,6457,7041,inactive
Npc2a (GeneID 33374),DRSC00698,10.2,7.65,6847,7031,inactive

Records above whose gene name begins with A or a:
gene,DRSC id,"infection score, replicate 1","infection score, replicate 2","cell count, replicate 1","cell count, replicate 2",call
AP-2alpha (GeneID 33211),DRSC00800,2.22,1.65,6582,6183,inactive
AP-2alpha (GeneID 33211),DRSC27715,0.69,1.64,5963,6101,active

Next records follow:
gene,DRSC id,"infection score, replicate 1","infection score, replicate 2","cell count, replicate 1","cell count, replicate 2",call
PGRP-LD + Pmi,DRSC10512,6.92,6.87,6544,6652,inactive
PGRP-LD + Pmi,DRSC10513,2.39,6.68,6032,599,inactive
Osi12 (GeneID 40766),DRSC12177,2.39,1.8,6495,6611,inactive
CG8736 (GeneID 35841),DRSC07255,6.42,6.97,6494,6501,inactive
CG8736 (GeneID 35841),DRSC27360,1.86,3.01,6302,6812,inactive
Prosbeta5R2 (GeneID 318924),DRSC01617,0.28,0.33,6444,5989,inactive
Prosbeta5R2 (GeneID 318924),DRSC29767,25.4,26,6040,5861,inactive
rho-5 (GeneID 2768944),DRSC02847,1.47,1.63,6543,7117,inactive
rho-5 (GeneID 2768944),DRSC26239,1.82,2.57,6525,6255,inactive
CG17111 (GeneID 42727),DRSC15174,3.77,2.29,6585,6551,inactive
CG17111 (GeneID 42727),DRSC26175,13.1,2.19,5343,6710,inactive
dgrn (GeneID 40725),DRSC12154,5.7,29.1,1439,4212,inactive
Ugt316A1 (GeneID 40079),DRSC10376,5.5,9.03,6369,6189,inactive
nonA-l (GeneID 42026),DRSC17017,1.11,2.7,6122,6452,inactive
nonA-l (GeneID 42026),DRSC25387,0.69,6.8,6256,6601,inactive
CG13563 (GeneID 37845),DRSC22153,6.78,3.18,6683,6702,inactive
vas (retired record) (GeneID 34884),DRSC22007,5.66,7.92,7188,2324,inactive
IA-2 (GeneID 33277),DRSC00304,4.94,2.79,6113,6770,inactive
IA-2 (GeneID 33277),DRSC00652,3.68,3.28,5958,6583,inactive
IA-2 (GeneID 33277),DRSC23335,7.82,11.7,6812,6716,inactive
IA-2 (GeneID 33277),DRSC24588,1.66,2.21,6191,5781,inactive
D (GeneID 39570),DRSC11132,0.46,1.67,6053,6047,inactive
D (GeneID 39570),DRSC25367,0.55,0.64,6876,7046,inactive
CG7071 + Muted,DRSC16189,10.1,5.06,6717,6360,inactive
pros (GeneID 41363),DRSC12856,3.8,5.07,5891,5172,inactive
pros (GeneID 41363),DRSC17032,14.7,9.74,6277,6448,inactive
pros (GeneID 41363),DRSC27593,7.22,6.47,6454,6380,inactive
